Experiment [1] relates to C. glabrata YEM19 (over-expressing the CgCDR1 and CgCDR2 pumps). Briefly: checkerboard assay / broth microdilution, potentiation of fluconazole vs. C. glabrata. The following applies: Nakaseomyces glabratus, 48 h. Background: In broth dilution the organism is exposed to a series of concentrations in liquid medium.
In experiment [2] the test system is Candida albicans YEM15 (over-expressing the CDR1 and CDR2 pumps). Briefly: checkerboard assay / broth microdilution, potentiation of fluconazole vs. C. albicans. The conditions noted are these: 48 h.

This is an account of results in patent US6689782B2, “Fungal efflux pump inhibitors” (priority 2001, dated 2004).

As usually defined, the MIC is the lowest concentration found to suppress growth.

As for `COC(=O)N[C@H](C(=O)N1CCN(n2c(C(C)N(C(=O)Nc3ccc(F)cc3)c3ccc(OC)cc3OC)nc3cc(F)ccc3c2=O)CC1)[C@H](C)O` (mixture of isomers) [Compound 267], the MIC in experiment [1] and in experiment [2] was greater than 32 µg/mL in each case.

`CC[C@H](NC(=O)OC(C)(C)C)C(=O)N1CCN(n2c(C(C)N(C(=O)Nc3ccc(F)cc3)c3ccc(OC)cc3OC)nc3ccccc3c2=O)CC1` (mixture of isomers) [Compound 292]: the MIC in experiment [1] and in experiment [2] was greater than 32 µg/mL in each case.

For the compound `CC[C@H](NC(=O)OC)C(=O)N1CCN(n2c(C(C)N(C(=O)Nc3ccc(F)cc3)c3ccc(OC)cc3OC)nc3cc(F)c(F)cc3c2=O)CC1` (mixture of isomers) [Compound 287], the MIC in experiment [1] and in experiment [2] was greater than 32 µg/mL in each case.

As to `CC[C@H](NC(=O)OC)C(=O)N1CCN(n2c(C(C)N(C(=O)Nc3ccc(F)cc3)c3ccc(OC)cc3OC)nc3cc(Cl)ccc3c2=O)CC1` (mixture of isomers) [Compound 289], the MIC in experiment [1] and in experiment [2] was greater than 32 µg/mL throughout.

Regarding `COc1ccc(N(C(=O)Nc2ccc(F)cc2)C(C)c2nc3cc(Cl)ccc3c(=O)n2N2CCN(C(=O)[C@H](C)N)CC2)c(OC)c1` (mixture of isomers) [Compound 304], the minimum inhibitory concentration (MIC) in experiment [1] and in experiment [2] was greater than 32 µg/mL each time.

Regarding `CCOC(=O)N[C@@H](CC)C(=O)N1CCN(n2c(C(C)N(C(=O)Nc3ccc(F)cc3)c3ccc(OC)cc3OC)nc3ccccc3c2=O)CC1` (mixture of isomers) [Compound 285], the MIC in experiment [1] and in experiment [2] was greater than 32 µg/mL each time.

On to `COc1ccc(N(C(=O)Nc2ccc(F)cc2)C(C)c2nc3cc(Cl)ccc3c(=O)n2N2CCN(C(=O)[C@H](NC(=O)C(F)(F)F)[C@@H](C)O)CC2)c(OC)c1` (mixture of isomers) [Compound 262], for which the MIC in experiment [1] and in experiment [2] was greater than 32 µg/mL each time.

In the case of `COc1ccc(N(C(=O)Nc2ccc(F)cc2)C(C)c2nc3cc(Cl)ccc3c(=O)n2N2CCN(C(=O)[C@@H]3CCC(=O)N3)CC2)c(OC)c1` (mixture of isomers) [Compound 259], the minimal inhibitory concentration (MIC) in experiment [1] and in experiment [2] was greater than 32 µg/mL throughout.

Turning to `COc1ccc(N(C(=O)Nc2ccc(F)cc2)C(C)c2nc3ccccc3c(=O)n2N2CCN(C(=O)[C@@H](NC(=O)OC(C)(C)C)C(C)C)CC2)c(OC)c1` (mixture of isomers) [Compound 279], the MIC in experiment [1] and in experiment [2] was greater than 32 µg/mL each time.

Take `CCOC(=O)N(C)CC(=O)N1CCN(n2c(C(C)N(C(=O)Nc3ccc(F)cc3)c3ccc(OC)cc3OC)nc3ccccc3c2=O)CC1` (racemic) [Compound 322]: the MIC in experiment [1] and in experiment [2] was greater than 32 µg/mL in each case.

Turning to `COC(=O)N[C@@H](C)C(=O)N1CCN(n2c(C(C)N(C(=O)Nc3ccc(F)cc3)c3ccc(OC)cc3OC)nc3cc(F)ccc3c2=O)CC1` (mixture of isomers) [Compound 310], the minimum inhibitory concentration (MIC) in experiment [1] and in experiment [2] was greater than 32 µg/mL in each case.

`COc1ccc(N(C(=O)Nc2ccc(F)cc2)C(C)c2nc3ccc(Cl)cc3c(=O)n2N2CCN(C(=O)[C@H]3NC(=O)O[C@@H]3C)CC2)c(OC)c1` (mixture of isomers) [Compound 255]: the MIC in experiment [1] and in experiment [2] was greater than 32 µg/mL throughout.

As for `CC[C@H](NC(=O)OC(C)C)C(=O)N1CCN(n2c(C(C)N(C(=O)Nc3ccc(F)cc3)c3ccc(OC)cc3OC)nc3ccccc3c2=O)CC1` (mixture of isomers) [Compound 286], the MIC in experiment [1] and in experiment [2] was greater than 32 µg/mL each time.

For the compound `COc1ccc(N(C(=O)Nc2ccc(F)cc2)C(C)c2nc3ccc(Cl)cc3c(=O)n2N2CCN(C(=O)[C@@H](NC(=O)OC(C)(C)C)[C@H](C)O)CC2)c(OC)c1` (mixture of isomers) [Compound 269], the MIC in experiment [1] and in experiment [2] was greater than 32 µg/mL throughout.

In the case of `COc1ccc(N(C(=O)Nc2ccc(F)cc2)C(C)c2nc3cc(Cl)ccc3c(=O)n2N2CCN(C(=O)C[C@@H]3CCCN3)CC2)c(OC)c1` (mixture of isomers) [Compound 317], the MIC in experiment [1] and in experiment [2] was greater than 32 µg/mL in each case.

`COC(=O)N[C@@H](C)C(=O)N1CCN(n2c(C(C)N(C(=O)Nc3ccc(F)cc3)c3ccc(OC)cc3OC)nc3ccc(OC)cc3c2=O)CC1` (mixture of isomers) [Compound 308]: the MIC in experiment [1] and in experiment [2] was greater than 32 µg/mL throughout.

With `COc1ccc(N(C(=O)Nc2ccc(F)cc2)C(C)c2nc3ccc(Cl)cc3c(=O)n2N2CCN(C(=O)[C@H](C)NC(=O)OC(C)(C)C)CC2)c(OC)c1` (mixture of isomers) [Compound 312], the minimal inhibitory concentration (MIC) in experiment [1] and in experiment [2] was greater than 32 µg/mL in each case.

For the compound `CCOC(=O)N(C)[C@@H](C)C(=O)N1CCN(n2c(C(C)N(C(=O)Nc3ccc(F)cc3)c3ccc(OC)cc3OC)nc3ccccc3c2=O)CC1` (mixture of isomers) [Compound 298], the MIC in experiment [1] and in experiment [2] was greater than 32 µg/mL each time.

For `CCOC(=O)NC(C)(C)C(=O)N1CCN(n2c(C(C)N(C(=O)Nc3ccc(F)cc3)c3ccc(OC)cc3OC)nc3ccccc3c2=O)CC1` (racemic) [Compound 331], the MIC in experiment [1] and in experiment [2] was greater than 32 µg/mL throughout.

For the compound `CCOC(=O)N[C@H](C(=O)N1CCN(n2c(C(C)N(C(=O)Nc3ccc(F)cc3)c3ccc(OC)cc3OC)nc3ccccc3c2=O)CC1)C(C)C` (mixture of isomers) [Compound 293], the minimal inhibitory concentration (MIC) in experiment [1] and in experiment [2] was greater than 32 µg/mL each time.

Regarding `COc1ccc(N(C(=O)Nc2ccc(F)cc2)C(C)c2nc3ccc(Cl)cc3c(=O)n2N2CCN(C(=O)[C@@H]3CCC(=O)N3)CC2)c(OC)c1` (mixture of isomers) [Compound 258], the MIC in experiment [1] and in experiment [2] was greater than 32 µg/mL throughout.

On to `CC[C@H](N)C(=O)N1CCN(n2c(C(C)N(C(=O)Nc3ccc(F)cc3)c3ccc(OC)cc3OC)nc3ccc(Cl)cc3c2=O)CC1` (mixture of isomers) [Compound 281], for which the MIC in experiment [1] and in experiment [2] was greater than 32 µg/mL throughout.

For the compound `COC(=O)N[C@@H](C)C(=O)N1CCN(n2c(C(C)N(C(=O)Nc3ccc(F)cc3)c3ccc(OC)cc3OC)nc3cc(F)c(F)cc3c2=O)CC1` (mixture of isomers) [Compound 306], the MIC in experiment [1] and in experiment [2] was greater than 32 µg/mL in each case.

Take `COc1ccc(N(C(=O)Nc2ccc(F)cc2)C(C)c2nc3ccccc3c(=O)n2N2CCN(C(=O)[C@@H](NC(=O)OC(C)(C)C)[C@H](C)O)CC2)c(OC)c1` (mixture of isomers) [Compound 272]: the MIC in experiment [1] and in experiment [2] was greater than 32 µg/mL each time.

As for `CCOC(=O)N[C@H](C(=O)N1CCN(n2c(C(C)N(C(=O)Nc3ccc(F)cc3)c3ccc(OC)cc3OC)nc3ccc(Cl)cc3c2=O)CC1)[C@@H](C)O` (mixture of isomers) [Compound 263], the MIC in experiment [1] and in experiment [2] was greater than 32 µg/mL in each case.

As to `COc1ccc(N(C(=O)Nc2ccc(F)cc2)C(C)c2nc3cc(Cl)ccc3c(=O)n2N2CCN(C(=O)[C@@H](NC(=O)OC(C)(C)C)[C@H](C)O)CC2)c(OC)c1` (mixture of isomers) [Compound 270], the minimum inhibitory concentration (MIC) in experiment [1] and in experiment [2] was greater than 32 µg/mL throughout.

With `COC(=O)N[C@H](C(=O)N1CCN(n2c(C(C)N(C(=O)Nc3ccc(F)cc3)c3ccc(OC)cc3OC)nc3ccc(Cl)cc3c2=O)CC1)[C@@H](C)O` (mixture of isomers) [Compound 265], the MIC in experiment [1] and in experiment [2] was greater than 32 µg/mL in each case.

With `COC(=O)NC(C)(C)C(=O)N1CCN(n2c(C(C)N(C(=O)Nc3ccc(F)cc3)c3ccc(OC)cc3OC)nc3cc(F)c(F)cc3c2=O)CC1` (racemic) [Compound 333], the MIC in experiment [1] and in experiment [2] was greater than 32 µg/mL throughout.

Take `COC(=O)N[C@H](C)C(=O)N1CCN(n2c(C(C)N(C(=O)Nc3ccc(F)cc3)c3ccc(OC)cc3OC)nc3cc(F)c(F)cc3c2=O)CC1` (mixture of isomers) [Compound 296]: the MIC in experiment [1] and in experiment [2] was greater than 32 µg/mL in each case.

With `COc1ccc(N(C(=O)Nc2ccc(F)cc2)C(C)c2nc3ccccc3c(=O)n2N2CCN(C(=O)[C@@H](NC(=O)OC(C)C)C(C)C)CC2)c(OC)c1` (mixture of isomers) [Compound 294], the MIC in experiment [1] and in experiment [2] was greater than 32 µg/mL each time.

Consider `COC(=O)NCCC(=O)N1CCN(n2c(C(C)N(C(=O)Nc3ccc(F)cc3)c3ccc(OC)cc3OC)nc3ccccc3c2=O)CC1` (racemic) [Compound 321], for which the MIC in experiment [1] and in experiment [2] was greater than 32 µg/mL in each case.

Turning to `CC[C@H](NC(=O)OC)C(=O)N1CCN(n2c(C(C)N(C(=O)Nc3ccc(F)cc3)c3ccc(OC)cc3OC)nc3ccc(Cl)cc3c2=O)CC1` (mixture of isomers) [Compound 288], the MIC in experiment [1] and in experiment [2] was greater than 32 µg/mL each time.

For `COc1ccc(N(C(=O)Nc2ccc(F)cc2)C(C)c2nc3ccccc3c(=O)n2N2CCN(C(=O)[C@H](C)N(C)C(=O)OC(C)C)CC2)c(OC)c1` (mixture of isomers) [Compound 299], the MIC in experiment [1] and in experiment [2] was greater than 32 µg/mL each time.

Consider `COC(=O)N[C@@H](C)C(=O)N1CCN(n2c(C(C)N(C(=O)Nc3ccc(F)cc3)c3ccc(OC)cc3OC)nc3cc(Cl)ccc3c2=O)CC1` (mixture of isomers) [Compound 309], for which the MIC in experiment [1] and in experiment [2] was greater than 32 µg/mL throughout.

Regarding `CC[C@H](NC(=O)OC)C(=O)N1CCN(n2c(C(C)N(C(=O)Nc3ccc(F)cc3)c3ccc(OC)cc3OC)nc3cc(F)ccc3c2=O)CC1` (mixture of isomers) [Compound 290], the minimal inhibitory concentration (MIC) in experiment [1] and in experiment [2] was greater than 32 µg/mL throughout.
